Results of unrelated studies side by side (data: NIAID ChemDB).

Common to all: growth or infection tests; organism: Mycobacterium tuberculosis

Neighbouring rows are from separate reports.

SMILES	measure	read by	strain or isolate	tested at	cell line	value
C[C@@H]1CN(c2c(F)c(N)c3c(=O)c(C(=O)O)cn(C4CC4)c3c2F)C[C@H](C)N1	EC50		TN1625 (A90V)			0.34 µg/mL
C/C(=C\c1c(C)[nH]c2ccccc12)[N+](=O)[O-]	inhibition	resazurin	H37Rv (ATCC 27294)	6.25 µg/mL	VERO	91%
O=C(O)c1ccc(=O)[nH]c1	MIC90	broth dilution / resazurin	H37Rv ATTC 27294			>359.4 µM
Fc1ccc(N/N=C\c2cc(C3CCCCC3)nc3ccccc23)cc1	inhibition	BACTEC	H37Rv	6.25 µg/mL		0%
CCN(CC)C(=O)c1cc(=O)c(C)c2oc3c(C)c(O)c(N)c(C(=O)N(CC)CC)c3nc1-2	MIC bound	BACTEC	H37Rv			>12.5 µg/mL
COc1cnc2ccc(=O)n(CCN3CCC(NCc4cc(Cl)c(Cl)cn4)CC3)c2c1	MIC	resazurin	ATCC 27294			≤0.01 µM
CC(C)(C)C1CCc2onc(C(=O)Nc3cnn(Cc4ccc5ccccc5c4)c3)c2C1	MIC		Rv3602c			>128 µM
CC(=O)N/N=C\c1cc(C2CCCCC2)nc2ccccc12	inhibition	BACTEC	H37Rv	6.25 µg/mL		0%
NC1=NC(=O)NC1(c1ccccc1)c1ccccc1	inhibition	BACTEC	H37Rv	12.5 µg/mL		20%
CCC1CN(c2cc3c(cc2F)c(=O)c(C(=O)O)cn3C2CC2)CCN1	MIC		TN565 (D94H)			5 µg/mL
CC(C)(C)NCc1cc(C(C)(C)C)cc(-c2ccc(Cl)cc2)c1O	MIC		H37Rv			12.5 µg/mL
CC(CNCC(c1ccccc1)c1ccccc1)NC[C@@H]1CC[C@H]2C[C@@H]1C2(C)C	MIC					12.5 µM
CCCCCC(=O)C(C)(c1nc2nnc(NC(=O)Nc3ccc(Cl)cc3)n2[nH]c1=O)c1nc2nnc(NC(=O)Nc3ccc(Cl)cc3)n2[nH]c1=O	inhibition	BACTEC	H37Rv	12.5 µg/mL		39%
Cc1c(C(=O)O)nn(-c2ccc(Cl)cc2Cl)c1-c1ccc(Cl)cc1	MIC90	agar	H37Rv			12.5 µg/mL
CCCCCCOC(=O)c1ccccc1	MBC	visual reading	H37Rv			>512 µg/mL
Cc1cc(C)c2c(OCCCCN3CCN(c4ncccn4)CC3)nsc2n1	EC50	BACTEC	H37Rv			>12.5 µg/mL
c1ccc(P(CCCCP(c2ccccc2)c2ccccc2)c2ccccc2)cc1	MIC90	broth dilution / resazurin	H37Rv ATTC 27294			117.2 µM
Cl.O=C(O)CNCCN1CC(=O)N(Cc2ccccc2)C1=S	inhibition	BACTEC	H37Rv	12.5 µg/mL		0%
CCC1CN(c2c(F)cc3c(=O)c(C(=O)O)cn(C4CC4)c3c2OC)CCN1	MIC		TN3033 (D94N)			0.7 µg/mL
COc1cccc(OC)c1[C@H]1[C@H]([N+](=O)[O-])C2CCCN2[C@@]12C(=O)Nc1ccccc12	MIC	agar	H37Rv			>25 µg/mL
CCOC(=O)NNP(=O)(NNC(=O)OCC)c1ccccc1	MIC bound	BACTEC	H37Rv			>12.5 µg/mL
O=C(Cc1csc2nc(-c3ccc(Br)cc3)cn12)N/N=C1\SCC(=O)N1c1ccccc1	MIC		H37Rv			>6.25 µg/mL
CCn1cc(C(=O)N=Nc2c(O)n(CC)c3ccccc23)c(=O)c2ccc(C)nc21	MIC					200 µg/mL
CCN(CC)c1cc2oc3cc(N)cc(=N)c-3nc2cc1C	MIC		TAC-R			0.4 µg/mL
CC(C)C[C@@H]1NC(=O)[C@H](Cc2c[nH]c3ccccc23)NC(=O)[C@@H](CCCN)NC(=O)[C@H](CC(N)=O)NC(=O)[C@H](C(C)C)NC(=O)[C@@H](Cc2ccc(Cl)cc2)NC1=O	MIC100	broth dilution / resazurin	H37Rv			1.9 µM
Cc1[nH]c2ccccc2c1/C=N/N=C/c1c(C)[nH]c2ccccc12	inhibition	resazurin	H37Rv (ATCC 27294)	6.25 µg/mL		10%
CCNC(=S)NNC(=O)Cc1csc2nc(-c3ccc(Br)cc3)cn12	inhibition		H37Rv	6.25 µg/mL		16%
Cc1c(-c2ccc(Cl)cc2)n[nH]c1C(=O)O	MIC90	agar	H37Rv			12.5 µg/mL
CC(C)(C)C1CCc2onc(C(=O)Nc3cnn(Cc4ccc(Cl)cc4)c3)c2C1	MIC		Rv3602c			>128 µM
Cn1cc(/C=N/N=C/c2cn(C)c3ccccc23)c2ccccc21	inhibition	resazurin	H37Rv (ATCC 27294)	6.25 µg/mL		2%
O=CN/N=C\c1cc(C2C3CC4CC(C3)CC2C4)nc2ccccc12	inhibition	BACTEC	H37Rv	6.25 µg/mL		98%
Cc1c(C(=O)NN2CCCCC2)nn(-c2ccccc2Cl)c1-c1ccc(Cl)cc1	MIC90	agar	H37Rv			12.5 µg/mL
CC(=O)N/N=C\c1cc(C2C3CC4CC(C3)CC2C4)nc2ccccc12	inhibition	BACTEC	H37Rv	6.25 µg/mL		0%
Cc1[nH]c2ccccc2c1/C=N/N(C)c1ccccc1	inhibition	resazurin	H37Rv (ATCC 27294)	6.25 µg/mL	VERO	95%
COC12OCCN(C)C1=CC(=O)C1=NNC(C)C12	MIC bound	BACTEC	H37Rv			>12.5 µg/mL
CC(C)(C)C1CCc2onc(C(=O)Nc3cnn(Cc4ccccc4)c3)c2C1	MIC	resazurin	Rv3602c			>128 µM
c1ccc(-c2ccccn2)nc1	MIC90	broth dilution / resazurin	H37Rv ATTC 27294			169.1 µM
COC1/C=C\C=C(/C)C(=O)Nc2cc3nc4cc(Br)ccc4oc-3c(c2=O)CC(C)CC(OC)C(O)C(C)/C=C(\C)C1OC(N)=O	MIC	BACTEC	H37Rv			≥12.5 µg/mL
CCN1C(=O)CS/C1=N\NC(=O)Cc1csc2nc(-c3ccc(Br)cc3)cn12	MIC		H37Rv			>6.25 µg/mL
Oc1cc2ccc1Oc1ccc(cc1)CCc1ccc(cc1)Oc1ccc(cc1O)CC2	MIC	resazurin	H37Rv			20 µg/mL
O=[N+]([O-])c1ccc(-c2csc(Nc3ccccn3)n2)o1	MIC bound	BACTEC	H37Rv			>12.5 µg/mL
C=C[C@]1(C)C=C2C(=O)c3c(NC=O)cccc3C(C)(C)[C@H]2C[C@H]1O	MIC					>100 µM
O=C(Cc1csc2nc(-c3ccc(Br)cc3)cn12)NNC(=S)Nc1ccc([N+](=O)[O-])cc1	inhibition		H37Rv	6.25 µg/mL		0%
CCCCNC(=O)c1cc([N+](=O)[O-])cc([N+](=O)[O-])c1	MIC	visual reading	H37Rv			0.5 µg/mL
Cc1cnc(N)c(C(=O)O)n1	inhibition	BACTEC	H37Rv	12.5 µg/mL		-5%
Cc1c(C(=O)N2CCOCC2)nn(-c2ccc(Cl)cc2Cl)c1-c1ccc(Cl)cc1	MIC90	agar	H37Rv			>25 µg/mL
Cc1cc(NS(=O)(=O)c2ccc(NC(=O)NCCCl)cc2)no1	inhibition	BACTEC	H37Rv	12.5 µg/mL		0%
Cc1cc(C)c2c(OCCCCN3CCN(c4ccccn4)CC3)nsc2n1	EC50	BACTEC	H37Rv			>12.5 µg/mL
Cc1c(C(=O)NN2CCCCC2)nn(-c2ccccc2)c1-c1ccc(Cl)cc1	MIC90	agar	H37Rv			3.13 µg/mL
Clc1ccc(Cl)c(N/N=C/c2ccsc2)c1	inhibition	resazurin	H37Rv (ATCC 27294)	6.25 µg/mL		70%
NC(=S)NNC(=O)CN1C(=O)c2ccccc2C1=O	MIC bound	BACTEC	H37Rv			>12.5 µg/mL
Cc1cc(C)c2c(=O)n(CC(O)CN3CCN(c4ccccn4)CC3)sc2n1	inhibition	BACTEC	H37Rv	12.5 µg/mL		12%
O=C(O)Cc1cccc2c(=O)cc(-c3ccccc3)oc12	MIC bound	BACTEC	H37Rv			>12.5 µg/mL
CNC(=S)NNC(=O)Cc1csc2nc(-c3ccc(Br)cc3)cn12	inhibition		H37Rv	6.25 µg/mL		29%
C[C@@H]1O[C@@H](O[C@H]2[C@H](O[C@H]3CC[C@]4(C)[C@H]5CC=C6[C@@H]7CC(C)(C)CC[C@]7(CO)C(O)C[C@@]6(C)[C@]5(C)CC[C@H]4C3(C)C)O[C@H](C(=O)O)[C@H](O[C@@H]3O[C@H](CO[C@@H]4O[C@H](CO)[C@H](O)[C@H](O)[C@H]4O)[C@@H](O)[C@H](O)[C@H]3O)[C@@H]2O)[C@H](O)[C@H](O)[C@H]1O	MIC bound	BACTEC	H37Rv			>12.5 µg/mL
CC[C@@H](C)[C@@H]1NC(=O)[C@@H](CC(C)C)NC(=O)[C@H](CC(C)C)NC(=O)[C@H](Cc2c[nH]c3ccccc23)NC(=O)[C@@H](CCCN)NC(=O)[C@H](CO)NC1=O	MIC100	broth dilution / resazurin	H37Rv			15 µM
Fc1cccc(N/N=C\c2cc(C3CCCCC3)nc3ccccc23)c1	inhibition	BACTEC	H37Rv	6.25 µg/mL		99%
CC1=N/C(=C\c2cccc(Cl)c2)C(=O)O1	MIC bound	BACTEC	H37Rv			>12.5 µg/mL
Fc1ccc(N/N=C/c2ccnc3ccccc23)cc1	inhibition	BACTEC	H37Rv	6.25 µg/mL		0%
CCCCNC(=S)NNC(=O)Cc1csc2nc(-c3ccc(Br)cc3)cn12	MIC		H37Rv			>6.25 µg/mL
CCn1cc(C(=O)N=Nc2c(O)n(-c3ccccc3)c3ccc(Br)cc23)c(=O)c2ccc(C)nc21	MIC					50 µg/mL
CC1COc2c(N3CCN(C)CC3)c(F)cc3c(=O)c(C(=O)O)cn1c23	MIC	resazurin	Erdman			0.5 µg/mL
c1ccc(-c2nc(-c3nccc4ccccc34)oc2-c2ccccc2)cc1	MIC bound	BACTEC	H37Rv			>12.5 µg/mL
Cc1[nH]c2ccccc2c1/C=C/[N+](=O)[O-]	inhibition	resazurin	H37Rv (ATCC 27294)	6.25 µg/mL		17%
CC(C)(C)OC(=O)c1ccc(Cn2cc(NC(=O)c3noc4c3CC(C(C)(C)C)CC4)cn2)cc1	MIC	resazurin	Rv3602c			>128 µM
CC(C)C[C@@H]1NC(=O)[C@H](Cc2c[nH]c3ccccc23)NC(=O)[C@@H](CCCN)NC(=O)[C@H](CC(N)=O)NC(=O)[C@H](C(C)C)NC(=O)[C@@H](C)NC1=O	MIC100	broth dilution / resazurin	H37Rv			>80 µM
Cc1c(C(=O)NN2CCC(C)CC2)nn(-c2ccc(F)cc2F)c1-c1ccc(Cl)cc1	MIC90	agar	H37Rv			12.5 µg/mL
Cc1ccc(S(=O)(=O)n2oc(=O)c(C3CCCCC3)c2N)cc1	MIC bound	resazurin	H37Rv			>6.25 µg/mL
CC(C)C[C@@H]1NC(=O)[C@H](Cc2c[nH]c3ccccc23)NC(=O)[C@@H](CCCN)NC(=O)C(CC(N)=O)N(C)C(=O)[C@H](C(C)C)NC(=O)[C@@H](CC(C)C)N(C)C1=O	MIC100	broth dilution / resazurin	H37Rv			>80 µM
Cc1ccc(NC(=S)NNC(=O)Cc2csc3nc(-c4ccc(Br)cc4)cn23)cc1	inhibition		H37Rv	6.25 µg/mL		1%
Cc1cc[n+](CC(=O)c2ccc(F)cc2)cc1.[Br-]	EC50	resazurin	H37Rv			8 µg/mL
CO[C@H]1/C=C/O[C@@]2(C)Oc3c(C)c(O)c4c(O)c(c5c(c4c3C2=O)NC2(CCN(CC(C)C)CC2)N=5)=NC(=O)/C(C)=C\C=C\[C@H](C)[C@H](O)[C@@H](C)[C@@H](O)[C@@H](C)[C@H](OC(C)=O)[C@@H]1C	MIC		Kurono			0.016 µg/mL
COC(=O)c1ccc(Cn2cc(NC(=O)c3noc4c3CC(C(C)(C)C)CC4)cn2)cc1	MIC		Rv3602c			>128 µM
O=[n+]1c2ccccc2n([O-])c2ccccc21	MIC		ETA-R			1.6 µg/mL
C(=N/Nc1ccccc1)/c1ccnc2ccccc12	inhibition	BACTEC	H37Rv	6.25 µg/mL		0%
CCn1cc(C(=O)N=Nc2c(O)[nH]c3ccccc23)c(=O)c2ccc(C)nc21	MIC					100 µg/mL
Cc1cc(C)c2c(OCCCN3CCN(c4cccc(Cl)c4)CC3)nsc2n1	inhibition	BACTEC	H37Rv	12.5 µg/mL		0%
COC(=O)C1C(O)C(C)C(O)C(C)(O)/C=C\C=C(/C)C(=O)Nc2c(C)c(OC(C)=O)c3c(c2O)C(=O)C(C)=C2OCOC(=C23)/C(C)=C/C(C)(O)C(O)C(C)C1O	inhibition	BACTEC	H37Rv	12.8 µg/mL		95%
O=C(O)c1ncccc1O	MIC90	broth dilution / resazurin	H37Rv ATTC 27294			226.4 µM

The last 7 rows once more:

SMILES | measure | read by | strain or isolate | tested at | cell line | value
COC(=O)c1ccc(Cn2cc(NC(=O)c3noc4c3CC(C(C)(C)C)CC4)cn2)cc1 | MIC |  | Rv3602c |  |  | >128 µM
O=[n+]1c2ccccc2n([O-])c2ccccc21 | MIC |  | ETA-R |  |  | 1.6 µg/mL
C(=N/Nc1ccccc1)/c1ccnc2ccccc12 | inhibition | BACTEC | H37Rv | 6.25 µg/mL |  | 0%
CCn1cc(C(=O)N=Nc2c(O)[nH]c3ccccc23)c(=O)c2ccc(C)nc21 | MIC |  |  |  |  | 100 µg/mL
Cc1cc(C)c2c(OCCCN3CCN(c4cccc(Cl)c4)CC3)nsc2n1 | inhibition | BACTEC | H37Rv | 12.5 µg/mL |  | 0%
COC(=O)C1C(O)C(C)C(O)C(C)(O)/C=C\C=C(/C)C(=O)Nc2c(C)c(OC(C)=O)c3c(c2O)C(=O)C(C)=C2OCOC(=C23)/C(C)=C/C(C)(O)C(O)C(C)C1O | inhibition | BACTEC | H37Rv | 12.8 µg/mL |  | 95%
O=C(O)c1ncccc1O | MIC90 | broth dilution / resazurin | H37Rv ATTC 27294 |  |  | 226.4 µM

ECn: concentration that inhibits the pathogen or its effect by n%. An empty or dashed field is not shown. A number after MIC or MFC names an inhibition level or a share of isolates. MIC bound: limit read from a one-dose screen. Percent inhibition refers to the dose given; in toxicity tests it is the harm to the cells.